Pooled drug test results. Numbers come from NIAID ChemDB, via PubChem.

Common to all: whole-cell or culture tests; agent: HIV-1; endpoint: EC50

An empty or dashed field is not shown.

| compound | method | changes | strain | cells | result |
|---|---|---|---|---|---|
| CCCCCCCCC(=O)O[C@@]12[C@H](OC(=O)/C=C/c3ccc(OC)cc3)[C@@H](C)[C@@]3(O)[C@@H](C=C(CO)C[C@]4(O)C(=O)C(C)=C[C@@H]34)[C@@H]1C2(C)C | p24 / ELISA |  | IIIB | C8166 | 0.0045 µM |
| CN1C/C(=C\c2ccc(O)c(O)c2)C(=O)/C(=C/c2ccc(O)c(O)c2)C1 | cytopathic effect / MTT |  |  | MT-4 | >5 µM |
| CC(C)CS[C@@H]1C=C[C@H](n2cnc3c(N)ncnc32)C1 | cytopathic effect / syncytia / trypan blue |  | IIIB | CEM | >10 µg/mL |
| Cc1cn([C@@H]2O[C@H](CO)[C@@H](CN=[N+]=[N-])[C@H]2O)c(=O)[nH]c1=O | cytopathic effect / MTT |  | IIIB | MT-2 | >100 µM |
| COC(=O)C(C)(C)NP(=O)(OC[C@H]1C=C[C@@H](n2cnc3c(N)ncnc32)C1)Oc1ccccc1 | cytopathic effect / MTS |  |  | MT-4 | 0.14 µM |
| O=C1/C(=C/c2cc(O)c(O)c(O)c2)CC/C1=C\c1cc(O)c(O)c(O)c1 | cytopathic effect / MTT |  |  | MT-4 | 60 µM |
| Cc1ncc(-c2ccc(OCCOC3CCCCC3)cn2)c(N2CCC(C)(C)CC2)c1[C@H](OC(C)(C)C)C(=O)O | luminescence |  | NL4-3 | MT-2 | 0.001 µM |
| COCCNC(=O)[C@@H](NC(=O)[C@H](Cc1ccc(OC)c(OC)c1OC)C[C@H](O)[C@H](Cc1ccccc1)NC(=O)OC(C)(C)C)C(C)C | RT activity |  | MN | MT-2 | 0.0052 µM |
| COC(=O)[C@H](C)NP(=O)(OC[C@@H]1C=C[C@H](n2cc(C)c(=O)[nH]c2=O)O1)Oc1ccc(OC)cc1 | p24 | RT-Y181C | A17 | PBMC | 0.121 µM |
| C[C@H](NP(=O)(OC[C@H]1C=C[C@@H](n2cnc3c(N)ncnc32)C1)Oc1ccccc1)C(=O)OC(C)(C)C | cytopathic effect / MTS |  |  | MT-4 | 8.2 µM |
| COc1cc([C@H]2OC[C@H]3[C@@H]2CO[C@@H]3c2cc(OC)c(O)c(OC)c2)cc(OC)c1O | MTT |  | IIIB | C8166 | 83.5 µg/mL |
| O=C(NCCCCCCN1CCC[C@@H]2C[C@@H]3C[C@@H](CN4CCCC[C@H]34)[C@@H]21)c1c(F)cc(Br)cc1F | luciferase |  | NL4-3 | MT-4 | >20 µM |
| Cc1cn([C@H]2CC[C@@](F)(CO)C2)c(=O)[nH]c1=O |  |  |  | PBMC | >100 µM |
| Cc1cn([C@H]2CC[C@@H](COC(=O)c3ccccc3)O2)c(=O)[nH]c1=O | cytopathic effect |  |  | CEM | <333 µM |
| FC(F)(F)c1cc(C(F)(F)F)c2ccc3nnc(-c4ccccc4)n3c2n1 | p24 |  | Isolate 2076 | PBMC | 19 µM |
| O=C(CNc1ccc2c(c1)OCO2)CSc1nc(CCc2ccccc2)nc2sc3c(c12)CCCC3 |  |  |  |  | 92 µM |
| Cc1ncc(-c2ccc(OCCC3(O)CCC3)cn2)c(N2CCC(C)(C)CC2)c1[C@H](OC(C)(C)C)C(=O)O | luminescence |  | NL4-3 | MT-2 | 0.0223 µM |
| N#CCc1ccc2cccc(S(=O)(=O)n3nc(Nc4ccc(C#N)c(Cl)c4)nc3N)c2c1 | luciferase / RT activity | Y181C/K103N | IIIB | TZM-bl | >1 µM |
| Cc1cn([C@H]2C[C@H](CN=[N+]=[N-])[C@@H](CO)O2)c(=O)[nH]c1=O | cytopathic effect / MTT |  | IIIB | MT-2 | >100 µM |
| CC1(C)[C@@H](O[C@H]2O[C@H](C(=O)O)[C@@H](O)[C@H](O)[C@H]2O[C@@H]2O[C@H](C(=O)O)[C@@H](O)[C@H](O)[C@H]2O)CC[C@]2(C)[C@H]3C(=O)C=C4[C@@H]5C[C@@](C)(CO)CC[C@]5(C)CC[C@@]4(C)[C@]3(C)CC[C@@H]12 | cytopathic effect / MTT |  | IIIB | MT-4 | ~160 µM |
| CC1=C[C@H]2[C@@]3(O)[C@H](C)[C@@H](OC(=O)CCc4ccccc4)[C@]4(OC(=O)CCc5ccccc5)[C@H]([C@@H]3C=C(CO)C[C@]2(O)C1=O)C4(C)C | p24 / ELISA |  | IIIB | C8166 | 0.0264 µM |
| CCc1nn(CCO)c(CC)c1Oc1cc(C)cc(C#N)c1 |  |  | RF | SupT1 | 0.0003 µM |
| O=C(NCCCCN1CCCC2=C[C@@H]3C[C@@H](CN4CCCC[C@H]34)[C@@H]21)c1ccc(OC(F)(F)F)cc1 | luciferase |  | NL4-3 | MT-4 | 1.12 µM |
| CCCCCCCC(=O)O.CCCCCCCCNCC(O)C(O)C(OC1OC(CO)C(O)C(O)C1O)C(O)CO | MTT |  | LAI | CEM + CEM-SS | >1000 µM |
| Fc1cccc(Cl)c1-c1nnc2ccc3c(C(F)(F)F)ccnc3n12 | p24 |  | Isolate 2076 | PBMC | 38 µM |
| COc1ccc(S(=O)(=O)N(CC(C)C)C[C@@H](O)[C@H](Cc2ccccc2)NC(=O)[C@@H]2CCCC3(C2)OCCO3)cc1 | syncytia |  | IIIB | MT-4 | 0.11 µM |
| CCCCCCCCCCCCCCCCNCC(O)C(O)C(OC1OC(CO)C(O)C(O)C1O)C(O)CO | MTT |  | LAI | CEM + CEM-SS | 50 µM |
| O=C1/C(=C/c2ccc(O)c(O)c2)CN(Cc2ccccc2)C/C1=C\c1ccc(O)c(O)c1 | cytopathic effect / MTT |  |  | MT-4 | >4.7 µM |
| CC1(C)[C@@H](O[C@H]2O[C@H](CO)[C@@H](O)[C@H](O)[C@H]2O[C@@H]2O[C@H](CO)[C@@H](O)[C@H](O)[C@H]2O)CC[C@]2(C)C3C=CC4=C5C[C@@](C)(CO)CC[C@]5(C)CC[C@@]4(C)[C@]3(C)CC[C@@H]12 | cytopathic effect / MTT |  | IIIB | MT-4 | ~160 µM |
| COc1ccccc1NC(=O)CSc1nc(CCc2ccccc2)nc2sc3c(c12)CCCC3 |  |  |  |  | >100 µM |
| COc1cc(C[C@H]2COC[C@@H]2Cc2ccc(O)c(OC)c2)ccc1O | MTT |  | IIIB | C8166 | >200 µg/mL |
| COC(=O)[C@H](C)NP(=O)(OC[C@@H]1C=C[C@H](n2cc(C)c(=O)[nH]c2=O)O1)Oc1cc(Cl)ccc1Cl | p24 | RT-Y181C | A17 | PBMC | 0.037 µM |
| Nc1ncnc2c1ccn2[C@H]1C=C[C@@H](CO)C1 | RT activity |  | LAI | CEM + CEM-SS | 3 µM |
| CCc1c(CC2CCCc3ccccc32)n(COCC=C(C)C)c(=O)[nH]c1=O | cytopathic effect / MTT | RT-Y181C | N119 RT-Y181C NNRTI-resistant | MT-4 | >100 µM |
| COC(=O)[C@H](C)NP(=O)(OC[C@@H]1C=C[C@H](n2cc(C)c(=O)[nH]c2=O)O1)Oc1ccc(Cl)cc1 | p24 | RT-Y181C | A17 | PBMC | 0.079 µM |
| O=S(=O)(Oc1ccc(N=Nc2ccc(N=Nc3ccc(OS(=O)(=O)c4ccc(Cl)cc4)c4ncccc34)cc2)c2cccnc12)c1ccc(Cl)cc1 | syncytia |  | IIIB | C8166 | 4.01 µg/mL |
| O=c1[nH]cnc2c1ccn2[C@H]1C=C[C@@H](CO)C1 | RT activity |  | LAI | CEM + CEM-SS | >100 µM |
| CC/C=C\C/C=C\C/C=C\C/C=C\C/C=C\C/C=C\CCC(=O)O[C@@]12[C@H](O)[C@@H](C)[C@@]3(O)[C@@H](C=C(CO)C[C@]4(O)C(=O)C(C)=C[C@@H]34)[C@@H]1C2(C)C | p24 / ELISA |  | IIIB | C8166 | 0.0951 µM |
| Cc1ccc(S(=O)(=O)Oc2ccc(N=Nc3ccc(N=Nc4ccc(OS(=O)(=O)c5ccc(C)cc5)c5ncccc45)cc3)c3cccnc23)cc1 | syncytia |  | IIIB | C8166 | 13.4 µg/mL |
| Cc1cc(S(N)(=O)=O)ccc1NC(=O)COc1ccc(Cl)cc1C(=O)c1cc(F)cc(C(F)(F)F)c1 | luciferase | RT-P236L | IIIB | HELA MAGI | 0.0051 µM |
| CCCO[C@H](C(=O)O)c1c(C)ncc(-c2ccc(OCC3CC3)cn2)c1N1CCC(C)(C)CC1 | luminescence |  | NL4-3 | MT-2 | 0.017 µM |
| O=[N+]([O-])c1ccc2c(C=Nc3ccc(-c4nc5ccccc5s4)c(O)c3)c(O)ccc2c1 |  |  |  |  | >100 µM |
| COC(=O)C(C)(C)NP(=O)(OC[C@@H]1C=C[C@H](n2ccc3c(N)ncnc32)C1)Oc1ccccc1 | cytopathic effect / MTS |  |  | MT-4 | >490 µM |
| O=C(NCCCCCCN1CCCC2=C[C@@H]3C[C@@H](CN4CCCC[C@H]34)[C@@H]21)c1c(F)cc(Br)cc1F | luciferase |  | NL4-3 | MT-4 | >20 µM |
| Cc1occc1C(=O)Nc1ccc(Cl)c(/C=N/N(C)C)c1 | syncytia | RT-K103N | R82913-resistant (RT K103N) | CEM | <2 µg/mL |
| NC(=O)CNC(=O)[C@@H]1CCCN1 | p24 |  | SF2 | H9 | >100 µM |
| O=C(CSc1nc(CCc2ccccc2)nc2sc3c(c12)CCCC3)NCc1cccs1 |  |  |  |  | 92.9 µM |
| Nc1ccn([C@H]2CC[C@@](F)(CO)C2)c(=O)n1 |  |  |  | PBMC | >100 µM |
| CC(=O)Nc1ccc(S(=O)(=O)Oc2ccc(N=Nc3ccc(N=Nc4ccc(OS(=O)(=O)c5ccc(NC(C)=O)cc5)c5ncccc45)cc3)c3cccnc23)cc1 | syncytia |  | IIIB | C8166 | 19.73 µg/mL |
| NCC(=O)N1CCC[C@H]1C(=O)NCC(=O)O | p24 |  | SF2 | H9 | >100 µM |
| N#C/C=C/c1ccc2cccc(S(=O)(=O)n3nc(Nc4ccc(C#N)c(Cl)c4)nc3N)c2c1 | luciferase / RT activity |  | IIIB | TZM-bl | 0.001745 µM |
| C/C=C/c1ccc2oc(-c3ccc(O)c(OC)c3)c(C)c2c1 | MTT |  | IIIB | C8166 | 23.6 µg/mL |
| O=C1/C(=C/c2ccc(Cl)c(Cl)c2)CSC/C1=C\c1ccc(Cl)c(Cl)c1 | cytopathic effect / MTT |  |  | MT-4 | >31 µM |
| CCCCCCCCC(=O)O[C@@]12[C@H](OC(=O)/C=C/c3ccc4c(c3)OCO4)[C@@H](C)[C@@]3(O)[C@@H](C=C(CO)C[C@]4(O)C(=O)C(C)=C[C@@H]34)[C@@H]1C2(C)C | syncytia / visual reading |  | IIIB | C8166 | 0.0262 µM |
| Cc1ncc(-c2ccc(OCCOc3cccnc3)cn2)c(N2CCC(C)(C)CC2)c1[C@H](OC(C)(C)C)C(=O)O | luminescence |  | NL4-3 | MT-2 | 0.0049 µM |
| COc1cc([C@H]2OC[C@@H]3[C@H]2CO[C@@H]3c2cc(OC)c(O)c(OC)c2)cc(OC)c1O | MTT |  | IIIB | C8166 | >200 µg/mL |
| CC(C)OC(=O)[C@H](C)NP(=O)(OC[C@H]1C=C[C@@H](n2cnc3c(N)ncnc32)C1)Oc1ccccc1 | cytopathic effect / MTS |  |  | MT-4 | 0.425 µM |
| N#CCc1ccc(Nc2nc(N)n(S(=O)(=O)c3cccc4ccc(CC#N)cc34)n2)cc1 | luciferase / RT activity | Y181C/K103N | IIIB | TZM-bl | 0.238 µM |
| O=c1[nH]cnc2c1ncn2[C@H]1CC[C@@](F)(CO)C1 |  |  |  | PBMC | >100 µM |
| Cc1[nH]c2ccc(-c3nnc(SCC(=O)N4CCCC4)o3)cc2c1C | β-galactosidase / luminescence |  | NL4-3 | TZM-bl | 0.205 µM |
| O=C(O)CC1C/C(=C\c2ccc(O)c(O)c2)C(=O)/C(=C/c2ccc(O)c(O)c2)C1 | cytopathic effect / MTT |  |  | MT-4 | >41 µM |
| CS(=O)(=O)Oc1ccc(N=Nc2ccc(N=Nc3ccc(OS(C)(=O)=O)c4ncccc34)cc2)c2cccnc12 | syncytia |  | IIIB | C8166 | 3.41 µg/mL |
| CCCCCCCCC(=O)O[C@@H]1[C@@H](C)[C@@]2(O)[C@@H](C=C(CO)C[C@]3(O)C(=O)C(C)=C[C@@H]23)[C@@H]2C(C)(C)[C@]12OC(=O)CCCCCCCC | syncytia / visual reading |  | IIIB | C8166 | 0.0052 µM |
| NCC(=O)N1CCCC1C(=O)NCC(N)=O | luciferase / reporter gene |  |  | TZM-bl | ~50 µM |
| Cc1cn([C@@H]2O[C@H](CO)[C@@H](CF)[C@H]2O)c(=O)[nH]c1=O | cytopathic effect / MTT |  | IIIB | MT-2 | >100 µM |
| Cc1ncc(-c2cnc(OC(Cc3ccccc3)C(F)(F)F)c(F)c2)c(N2CCC(C)(C)CC2)c1[C@H](OC(C)(C)C)C(=O)O | luminescence |  | NL4-3 | MT-2 | 0.0199 µM |
| OC1/C(=C/c2ccc(Cl)c(Cl)c2)CSC/C1=C\c1ccc(Cl)c(Cl)c1 | cytopathic effect / MTT |  |  | MT-4 | >119 µM |
| Cc1ncc(-c2cnc(OCCOC(C)C)c(F)c2)c(N2CCC(C)(C)CC2)c1[C@H](OC(C)(C)C)C(=O)O | luminescence |  | NL4-3 | MT-2 | 0.0007 µM |
| CC(=O)SCCOP(=O)(OCCSC(C)=O)OC[C@@H]1C=C[C@H](n2cc(C)c(=O)[nH]c2=O)O1 |  |  |  | MT-4 | 0.016 µM |
| Clc1cccc(Nc2nc(SCCN3CCOCC3)nc3c2cnn3CC(Cl)c2ccccc2)c1 |  |  |  |  | 16.54 µM |
| NCC(N)=O | p24 |  | IIIB | H9 | 11 µM |
| CCOCn1c(Cc2ccccc2)c(C(C)C)c(=O)[nH]c1=O | cytopathic effect / MTT | RT-Y181C | N119 RT-Y181C NNRTI-resistant | MT-4 | 44 µM |
| OC1/C(=C/c2ccc(Cl)c(Cl)c2)CCC/C1=C\c1ccc(Cl)c(Cl)c1 | cytopathic effect / MTT |  |  | MT-4 | >102 µM |
| COC(=O)C[C@](O)(Cc1ccc(O)c(OC)c1)C(=O)OC | MTT |  | IIIB | C8166 | >200 µg/mL |
| CC(C)(C)NC(=O)[C@@H]1C[C@@H]2CCCC[C@@H]2CN1C[C@@H](O)[C@H](Cc1ccccc1)NC(=O)[C@@H]1CCCS(=O)(=O)C1 | syncytia |  | IIIB | MT-4 | 0.2 µM |

ECn: concentration that inhibits the pathogen or its effect by n%. Neighbouring rows are from separate reports.